# Values of other authors in PMC11489056, “Molecular mechanism of a triazole-containing inhibitor of Mycobacterium tuberculosis DNA gyrase” (iScience, 2024).
# Legend:
# [1] = test system: Mtb; details: Figure 1E, GlaxoSmithKline MGIs; cited from earlier work
# [2] = test system: Mtb gyrase; details: Figure 1E, GlaxoSmithKline MGIs; cited from earlier work
compound,measurement,setting,value
O=c1ccc2ncccc2n1CCN1CCC(Nc2ccc(Cl)c(Cl)c2)CC1,MIC,[1],0.04 µg/mL
same,IC50,[2],11 µM

# This is a selection: effects in other tests are not listed, and their absence says nothing.
